Source: patent publication US6955891B2 (priority 2002, dated 2005)

Sequences of proteins named here, by UniProt entry; tags and fusion partners are left off. A change or cut given only in a name is not applied to a line headed by its entry.
UniProt P15917: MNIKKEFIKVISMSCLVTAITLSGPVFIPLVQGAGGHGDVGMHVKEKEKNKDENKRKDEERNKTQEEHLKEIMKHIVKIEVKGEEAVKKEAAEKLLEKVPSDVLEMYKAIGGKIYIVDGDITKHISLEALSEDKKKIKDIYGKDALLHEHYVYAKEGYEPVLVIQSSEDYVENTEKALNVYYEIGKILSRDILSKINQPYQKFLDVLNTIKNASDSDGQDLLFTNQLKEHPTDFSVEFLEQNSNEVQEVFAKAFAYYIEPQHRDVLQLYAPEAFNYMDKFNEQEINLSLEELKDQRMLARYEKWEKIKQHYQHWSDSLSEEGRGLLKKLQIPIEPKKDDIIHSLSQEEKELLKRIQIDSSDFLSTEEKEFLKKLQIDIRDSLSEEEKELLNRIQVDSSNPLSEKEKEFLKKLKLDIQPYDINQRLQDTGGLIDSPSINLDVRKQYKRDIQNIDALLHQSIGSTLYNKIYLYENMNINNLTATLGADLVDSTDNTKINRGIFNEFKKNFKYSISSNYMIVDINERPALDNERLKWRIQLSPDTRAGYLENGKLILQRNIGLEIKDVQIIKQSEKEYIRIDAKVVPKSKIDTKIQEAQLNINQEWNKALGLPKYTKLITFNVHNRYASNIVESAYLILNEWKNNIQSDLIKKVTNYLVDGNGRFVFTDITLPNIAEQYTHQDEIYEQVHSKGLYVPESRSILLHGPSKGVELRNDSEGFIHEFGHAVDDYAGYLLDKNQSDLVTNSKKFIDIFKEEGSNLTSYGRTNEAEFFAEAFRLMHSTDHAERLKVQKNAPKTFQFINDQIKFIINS

Tests used:
[1] = target: T1, Bacillus anthracis lethal factor (Bacillus anthracis, UniProt P15917); assay: Lethal factor HPLC-based cleavage assay
[2] = target: T1, Bacillus anthracis lethal factor; assay: Lethal factor cleavage of FRET analogs, increase in fluorescence; conditions: fluorescein/QSY-9 pair
[3] = Oxidation stability of the labeled peptide (methionine sidechain to sulfoxide)

**Q.** Which “turnover rate compared with the MEK1-derived peptides (in words)” value [1] does the source give for (Flu)NleKKKKVLP IQLNAATDKGG-NH2 here?
**A.** The value was “significantly higher turnover rate”.

**Q.** With (Flu)NleKKKKVLPIQLNAATDK(QSY-9)GG-NH2 as the substance, how does the “signal of the FRET peptide” value [2] read?
**A.** The value was “did not produce a good signal”.

**Q.** Which “fluorescein-mediated oxidation of methionine to sulfoxide, conversion” value ([3]; in solution in the presence of light, within one hour) does the source give for (Flu)MPKKKPTP IQLNPAPD-NH2 here?
**A.** Its value is “up to 50%”.

**Q.** And the levels of turnover ([1]; peptide 100 μM, ~1 μM lethal factor, 2-4 hours at 30° C., metal ion supplemented buffer)?
**A.** Its levels of turnover is 15-30%.

**Q.** With (QSY-9)NleKKKKVLPIQLNAATDK(Flu)GG-NH2 as the substance, how does the “signal of the FRET peptide” value [2] read?
**A.** Its value is “did not produce a good signal”.

**Q.** With (Flu)NlePKKKPTP IQLNPAPDKGG-NH2 as the substance, how does the “stability / propensity towards oxidation” value [3] read?
**A.** The value was “stable and showed no propensity towards oxidation”.
